From patent US7960387B2, “2-(3-phenyl-2-piperazinyl-3,4-dihydroquinazolin-4-yl)acetic acids as antiviral agents, especially against cytomegaloviruses” (Bayer Schering Pharma Aktiengesellschaft, priority 2003, dated 2011)

Tested on: HCMV
Assay: Anti-HCMV cytopathogenicity test
Type: cell-based, human cytomegalovirus
Conditions: selectivity index = CC50 (NHDF)/EC50 (HCMV)
Description: Anti-HCMV (Anti-Human Cytomegalovirus) Cytopathogenicity Tests The test compounds are employed as 50 millimolar (mM) solutions in dimethyl sulphoxide (DMSO). Ganciclovir®, Foscarnet® and Cidofovir® are used as reference compounds. After addition of in each case 2 μl of the 50, 5, 0.5 and 0.05 mM DMSO stock solutions to 98 μl portions of cell culture medium in row […] for duplicate determinations, 1:2 dilutions are carried out with 50 μl portions of medium up to row 11 of the 96-well plate. The wells in rows 1 and 12 each contain 50 μl of medium. In 150 μl of a suspension of 1×10^4 cells (human prepuce fibroblasts [NHDF]) are pipetted into each of the wells (row 1=cell control) and, in rows 2-12, a mixture of HCMV-infected and uninfected NHDF cells (M.O.I.=0.001-0.002), i.e. 1-2 infected cells per 1000 uninfected cells. Row 12 (without substance) serves as virus control. The final test concentrations are 250-0.0005 μM. The plates are incubated at 37° C./5% CO2 for 6 days, i.e. until all the cells are infected in the virus controls (100% cytopathogenic effect [CPE]). The wells are then fixed and stained by adding a mixture of formalin and Giemsa's dye (30 minutes), washed with double-distilled water and dried in a drying oven at 50° C. The plates are then assessed visually using an overhead microscope (Plaque Multiplier from Technomara). The following data can be acquired from the test plates: • CC50 (NHDF)=substance concentration in μM at which no visible cytostatic effects on the cells are evident by comparison with the untreated cell control; • EC50 (HCMV)=substance concentration in μM which inhibits the CPE (cytopathic effect) by 50% compared with the untreated virus control; • SI (selectivity index)=CC50 (NHDF)/EC50 (HCMV).

Row | SMILES | SI HCMV
1 | COc1ccc(C(F)(F)F)cc1N1C(N2CCN(c3cccc(Cl)c3)CC2)=Nc2ccccc2C1CC(=O)O (stereo not shown) [Example 26, {2-[4-(3-Chlorophenyl)-1-piperazinyl]-3-[2-methoxy-5-(trifluoromethyl)phenyl]-3,4-dihydro-4-quinazolinyl)acetic acid] | 1650
2 | Cc1cc(N2CCN(C3=Nc4ccccc4C(CC(=O)O)N3c3cccc(C(F)(F)F)c3)CC2)ccc1F (stereo not shown) [Example 1, {2-[4-(4-Fluoro-3-methylphenyl)-1-piperazinyl]-3-[3-(trifluoromethyl)phenyl]-3,4-dihydro-4-quinazolinyl}acetic acid] | 630
3 | O=C(O)CC1c2ccccc2N=C(N2CCN(c3ccc(F)cc3)CC2)N1c1cc(C(F)(F)F)ccc1F (stereo not shown) [Example 2, {2-[4-(4-Fluorophenyl)-1-piperazinyl]-3-[2-fluoro-5-(trifluoromethyl)phenyl]-3,4-dihydro-4-quinazolinyl}acetic acid hydrochloride] | 650
4 | COc1ccc(C(F)(F)F)cc1N1C(N2CCN(c3cccc(C)c3)CC2)=Nc2ccccc2C1CC(=O)O (stereo not shown) [Example 27, {2-[4-(3-Methylphenyl)-1-piperazinyl]-3-[2-methoxy-5-(trifluoromethyl)phenyl]-3,4-dihydro-4-quinazolinyl}acetic acid] | 1446
5 | COc1ccc(C)cc1N1C(N2CCN(c3cccc(C)c3)CC2)=Nc2ccccc2C1CC(=O)O (stereo not shown) [Example 30, {2-[4-(3-Methylpheny)-1-piperazinyl]-3-[2-methoxy-5-methylphenyl]-3,4-dihydro-4-quinazolinyl}acetic acid] | 1000
6 | COc1ccc(Cl)cc1N1C(N2CCN(c3ccc(F)cc3)CC2)=Nc2ccccc2C1CC(=O)O (stereo not shown) [Example 29, {2-[4-(4-Fluorophenyl)-1-piperazinyl]-3-[2-methoxy-5-chlorophenyl]-3,4-dihydro-4-quinazolinyl}acetic acid] | 1786
7 | COc1cccc(N2CCN(C3=Nc4ccccc4C(CC(=O)O)N3c3cc(Cl)ccc3OC)CC2)c1 (stereo not shown) [Example 28, {2-[4-(3-Methoxyphenyl)-1-piperazinyl]-3-[2-methoxy-5-chlorophenyl]-3,4-dihydro-4-quinazolinyl]acetic acid] | 2520
8 | COc1ccc(C)cc1N1C(N2CCN(c3cccc(Cl)c3)CC2)=Nc2ccccc2C1CC(=O)O (stereo not shown) [Example 31, {2-[4-(3-Chlorophenyl)-1-piperazinyl]-3-[2-methoxy-5-methylphenyl]-3,4-dihydro-4-quinazolinyl}acetic acid] | 450
9 | Cc1cc(Cl)ccc1N1C(N2CCN(c3cccc(Cl)c3)CC2)=Nc2ccccc2C1CC(=O)O (stereo not shown) [Example 6, {2-[4-(3-Chlorophenyl)-1-piperazinyl]-3-[4-chloro-2-methylphenyl]-3,4-dihydro-4-quinazolinyl}acetic acid] | 63
10 | O=C(O)CC1c2ccccc2N=C(N2CCN(c3cccc(Cl)c3)CC2)N1c1ccc(F)c(Cl)c1 (stereo not shown) [Example 19] | 60

Structures can show the parent of a compound that is named as a salt.
